Anti-infective test results gathered from many reports (values: NIAID ChemDB through PubChem).

Common to all: growth or infection tests; organism: HIV-1; read-out: EC50

Two numbers with a dash give a range or band. An empty or dashed field is not shown. Lines come from different laboratories, so protocols vary. ECn: concentration that inhibits the pathogen or its effect by n%.

smiles | conditions | strain or isolate | cell line | read by | value
COc1cc(N)cc2[nH]cc(C(=O)O)c12 | - | - | - | p24 | 0.87 µg/mL
CC(=O)O[C@@]12[C@H](OC(=O)/C=C/c3ccccc3)[C@@H](C)[C@@]3(O)[C@@H](C=C(CO)C[C@]4(O)C(=O)C(C)=C[C@@H]34)[C@@H]1C2(C)C | - | IIIB | C8166 | p24 / ELISA | 0.014 µM
[2H]C([2H])(NC[C@H](O)[C@@]12CC[C@]3(C)[C@H](CC[C@@H]4[C@@]5(C)CC[C@H](OC(=O)[C@H]6C[C@@H](C(=O)O)C6(C)C)C(C)(C)[C@@H]5CC[C@]43C)C1=C(C(C)C)C(=O)C2)c1ccccc1 | - | 92HT599 | MT-2 | p24 / ELISA | <1 µM
CC/C(C)=N/OCCOCn1cnc2c(=O)[nH]c(N)nc21 | - | IIIB | C8166 | - | >50 µM
O=C1c2ccccc2N(Cc2ccccc2Cl)S(=O)(=O)N1Cc1ccccc1 | - | IIIB | MT-4 | cytopathic effect | 3.4–7.6 µM
CCCCCCCCCCCCCC(=O)O[C@@H]1[C@@H](C)[C@@]2(O)[C@@H](C=C(CO)C[C@]3(O)C(=O)C(C)=C[C@@H]23)[C@@H]2C(C)(C)[C@]12O | - | IIIB | C8166 | p24 / ELISA | 1.625 µM
CC(C)C1=C2[C@H]3CC[C@@H]4[C@@]5(C)CC[C@H](OC(=O)[C@H]6C[C@@H](C(=O)O)C6(C)C)C(C)(C)[C@@H]5CC[C@@]4(C)[C@]3(C)CC[C@@]2(CC(=O)NC(C)(CO)CNC(=O)c2ccc(Cl)cc2)CC1=O | - | 92HT599 | MT-2 | p24 / ELISA | <1 µM
CC(C)=NOCCOCn1cnc2c(=O)[nH]c(N)nc21 | - | IIIB | C8166 | - | >50 µM
NC(=O)c1cn([C@@H]2CS[C@H](CO)O2)cn1 | - | LAV | PBMC | RT activity | >100 µM
COc1cc(N)cc2[nH]c(CC(=O)O)cc12 | - | - | - | p24 | 0.43 µg/mL
CC(=O)O[C@@]12[C@H](OC(=O)CCCCCCCBr)[C@@H](C)[C@@]3(O)[C@@H](C=C(CO)C[C@]4(O)C(=O)C(C)=C[C@@H]34)[C@@H]1C2(C)C | - | IIIB | C8166 | p24 / ELISA | 0.0335 µM
COC(=O)c1cc2c(OC)cc(N)cc2s1 | - | - | - | p24 | 3.26 µg/mL
CC1(C)[C@@H](O[C@H]2O[C@H](C(=O)O)[C@@H](O)[C@H](O)[C@H]2O[C@@H]2O[C@H](C(=O)O)[C@@H](O)[C@H](O)[C@H]2O)CC[C@]2(C)[C@H]3C(=O)C=C4[C@@H]5C[C@@](C)(C(=O)O)CC[C@]5(C)CC[C@@]4(C)[C@]3(C)CC[C@@H]12 | 6 d | IIIB | MOLT-4 | virus yield | <1200 µM
Cc1nnc(-c2ccc(C(=O)NC[C@H](O)[C@@]34CC[C@]5(C)[C@H](CC[C@@H]6[C@@]7(C)CC[C@H](OC(=O)[C@H]8C[C@@H](C(=O)O)C8(C)C)C(C)(C)[C@@H]7CC[C@]65C)C3=C(C(C)C)C(=O)C4)cc2)o1 | - | 92HT599 | MT-2 | p24 / ELISA | <1 µM
Cc1ccc(N/N=C/c2ccc3cccc(O)c3n2)cc1C | - | UG070 | TZM-bl | luciferase | >150 µM
N[C@@H](CCCCNC1c2ccc3cc4c5c6c(cc7ccc8cc9cc1c1c9c9c8c7c6c9c6c1c2c3c56)C4)C(=O)O | - | - | PBMC | p24 | 75 µM
COc1ccc(S(=O)(=O)O)cc1N=Nc1c(S(=O)(=O)O)cc2cc(Nc3nc(Nc4ccccc4)nc(Nc4cc(C)c(N=Nc5cc(S(=O)(=O)O)cc6cc(S(=O)(=O)O)cc(O)c56)cc4OC)n3)ccc2c1O | - | IIIB | MT-2 | p24 | 1.18 µM
COC(=O)Cc1cnc2cc(N)cc(OC)c2c1 | - | - | - | p24 | 0.71 µg/mL
O=S1(=O)N=C(OCc2ccccc2)c2ccccc2N1Cc1ccc(Cl)c(Cl)c1 | - | IIIB | MT-4 | cytopathic effect | >250 µM
Oc1cccc2ccc(/C=N/Nc3ccccc3C(F)(F)F)nc12 | - | VB59 | TZM-bl | luciferase | 16.57 µM
Cc1cn(-c2ccc(C(=O)NC[C@H](O)[C@@]34CC[C@]5(C)[C@H](CC[C@@H]6[C@@]7(C)CC[C@H](OC(=O)[C@H]8C[C@@H](C(=O)O)C8(C)C)C(C)(C)[C@@H]7CC[C@]65C)C3=C(C(C)C)C(=O)C4)cc2)cn1 | - | 92HT599 | MT-2 | p24 / ELISA | <1 µM
C/C(=N\OCCOCn1cnc2c(=O)[nH]c(N)nc21)c1ccccc1 | - | IIIB | C8166 | - | >50 µM
CC(C)C1=C2[C@H]3CC[C@@H]4[C@@]5(C)CC[C@H](OC(=O)[C@H]6C[C@@H](C(=O)O)C6(C)C)C(C)(C)[C@@H]5CC[C@@]4(C)[C@]3(C)CC[C@@]2(CCNCc2ccc(N3CCC(O)CC3)cc2)CC1=O | - | 92HT599 | MT-2 | p24 / ELISA | <1 µM
Oc1cccc2ccc(/C=N/Nc3ccc(F)cc3F)nc12 | - | VB59 | TZM-bl | luciferase | 42.87 µM
Cc1nc(C)c(CNC[C@H](O)[C@@]23CC[C@]4(C)[C@H](CC[C@@H]5[C@@]6(C)CC[C@H](OC(=O)[C@H]7C[C@@H](C(=O)O)C7(C)C)C(C)(C)[C@@H]6CC[C@]54C)C2=C(C(C)C)C(=O)C3)s1 | - | 92HT599 | MT-2 | p24 / ELISA | <1 µM
O=C1c2ccccc2N(Cc2ccccc2)S(=O)(=O)N1Cc1ccccc1Cl | - | IIIB | MT-4 | cytopathic effect | ≥10 µM
Cc1cn([C@H]2C[C@H](N=[N+]=[N-])[C@@H](CO)O2)c(=O)[nH]c1=O | - | IIIB X4 | MT-4 | cytopathic effect / MTT | 0.013 µM
CCCC(=O)O[C@@]12[C@H](OC(=O)/C=C/c3ccc(O)c(OC)c3)[C@@H](C)[C@@]3(O)[C@@H](C=C(CO)C[C@]4(O)C(=O)C(C)=C[C@@H]34)[C@@H]1C2(C)C | - | IIIB | C8166 | p24 / ELISA | 0.0957 µM
COc1cc(N=Nc2cc(S(=O)(=O)O)cc3cc(S(=O)(=O)O)cc(O)c23)c(C)cc1Nc1nc(Nc2ccncc2)nc(Nc2ccncc2)n1 | - | IIIB | MT-2 | cytopathic effect / XTT | 28.52 µM
Oc1cccc2ccc(/C=N/Nc3ccc(C(F)(F)F)cc3)nc12 | - | UG070 | TZM-bl | luciferase | >150 µM
CC1=C[C@H]2[C@@]3(O)[C@H](C)[C@@H](OC(=O)CCCCCCCCCCBr)[C@]4(OC(=O)CCCCCCCCCCBr)[C@H]([C@@H]3C=C(CO)C[C@]2(O)C1=O)C4(C)C | - | IIIB | C8166 | p24 / ELISA | 80.85 µM

For reference, 2 entries again:

smiles | conditions | strain or isolate | cell line | read by | value
C/C(=N\OCCOCn1cnc2c(=O)[nH]c(N)nc21)c1ccccc1 | - | IIIB | C8166 | - | >50 µM
Cc1nnc(-c2ccc(C(=O)NC[C@H](O)[C@@]34CC[C@]5(C)[C@H](CC[C@@H]6[C@@]7(C)CC[C@H](OC(=O)[C@H]8C[C@@H](C(=O)O)C8(C)C)C(C)(C)[C@@H]7CC[C@]65C)C3=C(C(C)C)C(=O)C4)cc2)o1 | - | 92HT599 | MT-2 | p24 / ELISA | <1 µM